# Values of other authors as cited in publication PMC6117091, “The C. difficile clnRAB operon initiates adaptations to the host environment in response to LL-37” (PLoS Pathogens, 2018).
# Settings: ref [6]–[8]; cited from earlier work
structure (smiles),measurement,value
CC[C@H](C)[C@H](NC(=O)[C@H](CCCCN)NC(=O)[C@H](CCC(=O)O)NC(=O)[C@H](CCCCN)NC(=O)[C@H](CO)NC(=O)[C@H](CCCCN)NC(=O)[C@H](CCCNC(=N)N)NC(=O)[C@H](Cc1ccccc1)NC(=O)[C@H](Cc1ccccc1)NC(=O)[C@H](CC(=O)O)NC(=O)CNC(=O)[C@H](CC(C)C)NC(=O)[C@@H](N)CC(C)C)C(=O)NCC(=O)N[C@@H](CCCCN)C(=O)N[C@@H](CCC(=O)O)C(=O)N[C@@H](Cc1ccccc1)C(=O)N[C@@H](CCCCN)C(=O)N[C@@H](CCCNC(=N)N)C(=O)N[C@H](C(=O)N[C@H](C(=O)N[C@@H](CCC(N)=O)C(=O)N[C@@H](CCCNC(=N)N)C(=O)N[C@H](C(=O)N[C@@H](CCCCN)C(=O)N[C@@H](CC(=O)O)C(=O)N[C@@H](Cc1ccccc1)C(=O)N[C@@H](CC(C)C)C(=O)N[C@@H](CCCNC(=N)N)C(=O)N[C@@H](CC(N)=O)C(=O)N[C@@H](CC(C)C)C(=O)N[C@H](C(=O)N1CCC[C@H]1C(=O)N[C@@H](CCCNC(=N)N)C(=O)N[C@H](C(=O)N[C@@H](CCC(=O)O)C(=O)N[C@@H](CO)C(=O)O)[C@@H](C)O)C(C)C)[C@@H](C)CC)C(C)C)[C@@H](C)CC [LL-37],concentration in neutrophil granules,~ 6 μg/ml
same,level in the lungs of cystic fibrosis patients,15 µg/mL
